Reference: patent US20260069689A1, “ANTI-SARS-COV-2-SPIKE GLYCOPROTEIN ANTIBODIES AND ANTIGEN-BINDING FRAGMENTS” (Regeneron, published 2026)

B1: mAb15164 (antibody)
heavy: not shown
light: QSALTQPASVSGSPGQSITISCTGTSSDFGNYNIVSWYQQHPGQAPKVMIYEGNKRPSGVSNRFSGSKSGHTASLTISGLQAEDEADYYCSSYAGSSTWVFGGGTKLTVLGQPKAAPSVTLFPPSSEELQANKATLVCLISDFYPGAVTVAWKADSSPVKAGVETTTPSKQSNNKYAASSYLSLTPEQWKSHRSYSCQVTHEGSTVEKTVAPTECS
B2: mAb15165 (antibody)
heavy: not shown
light: QSALTQPASVSGSPGQSITISCTGTSSDFGSYNLVSWYQQHPGKAPKLMIYEGNKRPSGVSIRFSGSKSGNTASLTISGLQAEDEADYYCSSYAGSSTWVFGGGTKLTVLGQPKAAPSVTLFPPSSEELQANKATLVCLISDFYPGAVTVAWKADSSPVKAGVETTTPSKQSNNKYAASSYLSLTPEQWKSHRSYSCQVTHEGSTVEKTVAPTECS
B3: mAb14316 (antibody, V domains shown)
VH: QVQLVQSGAEVKKPGSSVKVSCKAPGGTFSTYAINWVRQAPGQGLEWMGRIVPFFGTTNYAQKFQGRVTITADESTSTAYMELSSLTSEDTAVYYCARGPRPFGELLYWGQGTLVTVSS
VL: DIQMTQSPSSLSASVGDRVTITCQASQDISNYLNWYQQKPGKAPKLLIYDASNLETGVPSRFSGSGSGTDFTFTISSLQAEDIATYYCQQYDNLLFTFGPGTKVDIKR
B4: mAb14293 (antibody, V domains shown)
VH: QVQLVQSGAEVKKPGASVKVSCKASGYTFTNYYMHWVRQAPGQGLEWMGIINPSGGSTSYAQKFLGRVTMTRDTSTTTVYMELSSLRSEDTAVYFCARVENLPTKWDLLRKGFESGMDVWGQGTTVTVSS
VL: EIVMTQSPATVSVSPGERATLSCRASQSVSSNLAWYQQKPGQAPRLLIYGASTRATGIPASFSGSGSGTEFTLTISSLQSEDFAVYYCQQYNNWPITFGPGTKVDIKR
B5: mAb15156 (antibody)
heavy: not shown
light: QSVLTQPPSASGTPGQRVTISCSGSRSNIGINTVNWYQQFPGTALNLLIFSDNQRPSGVPDRFSGSKSGTSASLAISGLQSEDEADYYCAAWDDSLNGPDWVFGGGTKLTVLGQPKAAPSVTLFPPSSEELQANKATLVCLISDFYPGAVTVAWKADSSPVKAGVETTTPSKQSNNKYAASSYLSLTPEQWKSHRSYSCQVTHEGSTVEKTVAPTECS
B6: mAb14292 (antibody, V domains shown)
VH: EVQLVESGGGLVQPGGSLRLSCVASGFAFSTYEMNWVRQAPGKGLEWVSYISSSGSTIYYADSVKGRLTISRDNVKNSLYLQMNSLRVEDTAIYYCARDAIRNNDILTDPATFDPWGQGTLVTVSS
VL: not shown
B7: mAb14289 (antibody, V domains shown)
VH: QVQLVQSGPEVKKPGASVKVSCKASGYTFTSYAISWVRQAPGQGLEWMGWISAYNGNTNYAQKLQGRVTMTTDTFTSTAYMELRSLRSDDTAVYYCAVPADHITFDYWGQGTLVTVSS
VL: EIVLTQSPGTLSLSPGERATLSCRASQSVSSYLAWYQQKPGQAPRLLIHGASSRATGIPDRFSGSGSGTDFTLTISRLEPEDFAVYYCQQYGSSFLTFGGGTKVEIKR
B8: mAb14313 (antibody, V domains shown)
VH: EVQLVESGGGLVQPGRSLRLSCVASGFTFDDSAMHWVRQPPGKGLEWVSGISWNSGIIGYAESVKGRFIISRDNAKNSLFLHMRGLRPEDTAVYYCARDRLELSYYYYGMDVWGQGTTVTVSS
VL: QSVLTQPPSASGTPGQRVTISCSGSSSNIGSNTVNWYQQFPGTAPRLLIYSNDQRPSGIPDRFSGSKSGTSASLAISGLQSEDEADYYCSTWDDSLNGAVFGGGTQLTVLG
B9: mAb15157 (antibody, V domains shown)
VH: EVQLVESGGALVQPGGSLRLSCAASGFPFTIYAMTWVRQAPGKGLEWVSVITGSGDSTYYADSVKGRFTISRDNSKNTLYLQMNSLRAEDTAVYYCVKTGEGFFYYYYGMDVWGQGTTVTVSS
VL: QSVLTQPPSVSAAPGQKVTISCSGSSSNIGNSYISWYQQLPGTAPKLLIYVNNKRPSGIPDRFSGSKSGTSATLGITGLQTGDEADYYCGTWDSSLSAGVFGSGTKVTVLG
B10: mAb14295 (antibody, V domains shown)
VH: QLQLQESGPGLVKPSETLSLTCTVSGGSISSSGHYWGWIRQSPGKGLDWIGSIYYSGSTYYNPSLKSRVTISVDTSKNQFSLKLNSVTAADTAVYFCARLEAYCSGDTCHYFYGLDVWGQGTTVTVSS
VL: DIQMTQSPSSLSASVGDRVTITCRASQSINTYLNWYQQKPGKAPNLLIDGASSLQSGVPSRFSGSGSGTDFILTISSLRPEDFATYYCQQSYSIPLTFGGGTRVEIKR
B11: mAb15163 (antibody, V domains shown)
VH: EVQLVETGGGLIQPGESLRLSCAASGFIVSTNYMNWVRQAPGKGLEWVSVIYRGGSTYYADSVKGRFTISRDNSKNTLFLQMNSLRAEDTAVYYCARGHEDFDYDTPASGAFDIWGQGTMVTVSS
VL: QSALTQPPSASGSPGQSVTISCTGTSSDVGGHNYVSWYQQHPGKAPKVMIYEVSKRPSGVPDRFSGSKSGNTASLTVSGLQAEDEADYYCSSYAGSNKFVFGTGTKVTVLG
B12: mAb14294 (antibody, V domains shown)
VH: EVQLVESGGGLVQPGGSLRLSCAASGFTFSNHWMDWVRQAPGKGLVWVSRINSDGSSTDYADSVRGRFTMSRDNAKNTLYLQMSSLRAEDTAVYYCAREGMIFGAVIIPGWYFDLWGRGALVTVSS
VL: EIVLTQSPGTLSLSPGERATLSCRASQSVSSSQLAWYQQKPGQAPRLLIYGASSRATGIPDRFSGSGSGTDFTLTISRLEPEDFAVYYCQQYDSFGQGTKLEIKR
B13: mAb14290 (antibody, V domains shown)
VH: QVQLVQSGAEVKKPGSSVKVSCKASGGSFSNYAISWVRQAPGQGLEWMGGIIPFFGTTNYAQKFQGRLTITADESTSTFYMELSSLGSEDTAVYYCAAGYSSGWYPSWFDPWGQGTLVTVSS
VL: EIVLTQSPGTLSLSPGERATLSCRASQSVNNNYLAWYQQKPGQTPRLLIYGASSRATGIPDRFSGSGSGTDFTLTITRLEPEDFAVYHCQQYGRSPTTFGQGTRLEIKR
B14: mAb14291 (antibody, V domains shown)
VH: EVQLVQSGAEVKKPGSTMKISCKISGYIFSDYYMHWVQQAPGKGLEWMGLVDPEDGETRYAEKFQGRVTITADTSTDTAYMELSSLRFEDTAVYYCATVGGSSGPWGETLFDHWGQGSLVTVSS
VL: DIVMTQSPLSLPVTPGEPASISCRSSQSLLHSNGYNYINWYLQKPGQSPQLLMYLGSNRASGVPDRFSGSGSGTDSTLKISRVEAEDAGVYYCMQTRQTPYTFGQGTKLEIKR
B15: mAb14312 (antibody)
heavy: not shown
light: QSVLTQPPSVSGAPGQRVTISCTGSSSNIGAGDDVHWYQQLPGTAPKLLIYGNSNRPSGVPDRFSGSKSGTSASLAITGLQAEDEADYYCQSYDSSLSGSVVFGGGTKLTVLGQPKAAPSVTLFPPSSEELQANKATLVCLISDFYPGAVTVAWKADSSPVKAGVETTTPSKQSNNKYAASSYLSLTPEQWKSHRSYSCQVTHEGSTVEKTVAPTECS

molecular target: SARS-CoV-2 spike protein, wild-type (Wuhan-Hu-1) or D614G control (SARS-CoV-2); test: cell-based or functional assay

B1 and B2 are within 1.5-fold of each other in “IC50 (pseudoparticle neutralization)” value: 0.0248 nM for the first, 0.0296 nM for the second.

Compared with B3, B4 is 8.5-fold higher in “IC50 (pseudoparticle neutralization)” value: 0.129 nM for the first, 1.1 nM for the second.

Going from B5 to B6, the “IC50 (pseudoparticle neutralization)” value rises from 0.0209 nM to 0.0577 nM (2.8-fold).

First: B7
Second: B8
The “IC50 (pseudoparticle neutralization)” value of the first is 6.8-fold lower: 0.0402 nM for the first, 0.272 nM for the second.

Going from B9 to B10, the “IC50 (pseudoparticle neutralization)” value rises from 0.0372 nM to 0.195 nM (5.2-fold).

B11 and B12 are within 1.5-fold of each other in “IC50 (pseudoparticle neutralization)” value: 0.0628 nM for the first, 0.0567 nM for the second.

First: B13
Second: B14
The “IC50 (pseudoparticle neutralization)” value of the first is 9.8-fold higher: 1.2 nM for the first, 0.123 nM for the second.

With B15 the “IC50 (pseudoparticle neutralization)” value was 0.0466 nM.
